We go through two molecules from paper PMC5514147, “Characterization of HIV-1 integrase interaction with human Ku70 protein and initial implications for drug targeting” (Scientific Reports, 2017).

For this assay, the target named is T1, recombinant HIV-1 integrase with N-terminal His6-tag (HIV-1).
T1 construct: Plasmid provided by J-F. Mouscadet; source: E. coli, purified by the His6 tag; not shown: His6, N-terminal, kept
Put plainly: pull-down; GST-pull-down: GST-Ku70 proteins (or GST) held on glutathione-agarose, His6-IN proteins as prey; buffer A (20 mM Hepes pH 7.5, 100 mM NaCl, 7.5 mM MgCl2, 2 mM 2-mercaptoethanol, 50 ug/ml BSA, 0.1% NP40), room temperature, Western blot; Kd from increasing IN at 50 nM Ku70 mutant. The note with it: both partners purified.

B1: Ku70_1-250 mutant (N-terminal alpha/beta-domain of Ku70) with N-terminal GST-tag (domain or fragment)
chain: MSGWESYYKTEGDEEAEEEQEENLEASGDYKYSGRDSLIFLVDASKAMFESQSEDELTPFDMSIQCIQSVYISKIISSDRDLLAVVFYGTEKDKNSVNFKNIYVLQELDNPGAKRILELDQFKGQQGQKRFQDMMGHGSDYSLSEVLWVCANLFSDVQFKMSHKRIMLFTNEDNPHGNDSAKASRARTKAGDLRDTGIFLDLMHLKKPGGFDISLFYRDIISIAEDEDLRVHFEESSKLEDLLRKVRAKE
notes: Ku70, human, residues 1-250 (N-terminal alpha/beta domain); also called Ku_1-250; Ku70 N-terminal domain; not shown: GST, N-terminal, kept
Regarding B1, the Kd turned out to be 0.1 ± 0.03 µM.

B2: Ku70_1-318 deletion mutant with N-terminal GST-tag (domain or fragment)
chain: MSGWESYYKTEGDEEAEEEQEENLEASGDYKYSGRDSLIFLVDASKAMFESQSEDELTPFDMSIQCIQSVYISKIISSDRDLLAVVFYGTEKDKNSVNFKNIYVLQELDNPGAKRILELDQFKGQQGQKRFQDMMGHGSDYSLSEVLWVCANLFSDVQFKMSHKRIMLFTNEDNPHGNDSAKASRARTKAGDLRDTGIFLDLMHLKKPGGFDISLFYRDIISIAEDEDLRVHFEESSKLEDLLRKVRAKETRKRALSRLKLKLNKDIVISVGIYNLVQKALKPPPIKLYRETNEPVKTKTRTFNTSTGGLLLPSDTKR
notes: Ku70, human, residues 1-318 (STOP codon added at 319 in pGEX-6p-1-Ku70); not shown: GST, N-terminal, kept
B2: the Kd was 0.09 ± 0.025 µM.
